ChEMBL document CHEMBL4513135, “CO-ADD screening of IQOG CSIS (Spain) compounds”

Tests used:
Escherichia coli = assay: Antibacterial activity against Escherichia coli ATCC 25922 (CO-ADD:GN_001); MIC in CAMBH media using NBS plates, by OD(600); details: Concentration 32.0 ug.mL-1
Staphylococcus aureus = assay: Antibacterial activity against Staphylococcus aureus MRSA ATCC 43300 (CO-ADD:GP_020); MIC in CAMBH media, using NBS plates, by OD(600); details: Concentration 32.0 ug.mL-1

Question: How did the inhibition (Escherichia coli) turn out when `COc1ccc(C=C(C#N)C#N)cc1` was run?
Answer: Its inhibition is -4.61%.

Question: What about the inhibition (Staphylococcus aureus) of the same molecule?
Answer: The inhibition was -5.84%.
